Experimental data from patent US20170049848, “Target for Firmicutes and Related Bacteria: The PRP Protease” (published 2017).

Molecular target: Staphylococcus aureus ribosomal protein L27 with C-terminal Myc and His6 tags, Q2FXT0

B1: Staphylococcus aureus Prp N46A, untagged (protein)
chain: MITVDITVNDEGKVTDVIMDGHADHGEYGHDIVCAGASAVLFGSVAAIIGLTSERPDINYDDNGGHFHIRSVDTNNDEAQLILQTMLVSLQTIEEEYNENIRLNYK
cleavage of substrate: This Prp single mutant could still cleave its substrate
